Test results taken from paper PMC10886162, “Synthesis of Novel Artemisinin, Ciprofloxacin, and Norfloxacin Hybrids with Potent Antiplasmodial Activity” (Antibiotics, 2024).

System: CQ-resistant P. falciparum FcB1 strain
Assay: In vitro growth inhibition of P. falciparum FcB1 ([3H]-hypoxanthine incorporation)
Format: cell-based, Plasmodium falciparum
Experimental: The chloroquine-resistant FcB1/Colombia and Dd2/Indochina strains of Plasmodium falciparum were obtained from the Protist Collection of the National Museum of Natural History, Paris, France (n° MNHN-CEU-2016-224-PfFCB1 and MNHN-CEU-2016-222-PfDD2). The parasites were maintained in vitro on human erythrocytes in RPMI 1640 medium supplemented by 8% (v/v) heat-inactivated human serum, at 37 °C, under an atmosphere of 5% CO2. The human red blood cells and serum were provided by the Établissement Français du Sang under the C-CPSL-UNT approval no. 13/EFS/126. The in vitro drug susceptibility assays were measured by [^3H]-hypoxanthine incorporation, as previously described. The drug stock solutions were prepared in DMSO. Briefly, the assays were performed in 96-well plates. The compounds were diluted in the culture medium (100 μL per well). The parasite cultures (100 μL, 2% parasitaemia, and 1% final hematocrit) were then added to each well and incubated for 24 h at 37 °C prior to the addition of 0.5 μCi of [^3H]- hypoxanthine (GE Healthcare, Paris, France, 1 to 5 Ci·mmol/mL) per well. After a further incubation of 24 h, the plates were frozen and thawed. The cell lysates were then collected onto fiberglass filters and counted in a liquid scintillation spectrometer. The growth inhibition for each drug concentration was determined through a comparison of the radioactivity incorporated in the treated culture with that in the control culture maintained on the same plate. The drugs were first evaluated for a range of fixed concentrations of 50, 5, 0.5, 0.05, and 0.005 μg/mL. […] The IC50 value was obtained from the drug concentration–response curve, and the results were expressed in μM or nM as the mean values ± standard deviations determined from several independent experiments. Artesunate (46) was used as an antimalarial drug control.

C[C@@H]1CCC2[C@@H](C)[C@@H](CC(=O)N3CCN(c4cc5c(cc4F)c(=O)c(C(=O)O)cn5C4CC4)CC3)O[C@@H]3O[C@@]4(C)CCC1[C@@]23OO4 (stereo partly drawn) [Compound 12, 1-cyclopropyl-6-fluoro-4-oxo-7-(4-(2-((3R,6R,9R,10R,12R,12aR)-3,6,9-trimethyldecahydro-12H-3,12-epoxy[1,2]dioxepino[4,3-i]isochromen-10-yl)acetyl)piperazin-1-yl)-1,4-dihydroquinoline-3-carboxylic acid]
times more potent than compound 13: around 200

CCCCOC(=O)c1cn(C2CC2)c2cc(N3CCNCC3)c(F)cc2c1=O [Compound 39]
fold better activity than compound 38 (n-Bu ester vs ethyl ester trifluoroacetate salt): > 3.9

O=C(c1cn(C2CC2)c2cc(N3CCNCC3)c(F)cc2c1=O)N1CCN(c2ccnc3cc(Cl)ccc23)CC1 [Compound 42]
times more active than compound 38: 148
times more potent than compound 39: 37
